Source: patent US8354433B2, “Anti-inflammatory agents as virostatic compounds” (4SC AG, priority 2009, dated 2013)

Legend:
[1] = tested on: HCV subgenomic replicon of genotype 1b; type: cell-based, Hepatitis C Virus
HIV-191US005 = assay: Anti-HIV efficacy in fresh human PBMCs (RT activity and p24 ELISA); type: cell-based, HIV-1; conditions: TI=TC/IC

Row | Structure (SMILES) | Therapeutic Index [1] | Therapeutic Index (HIV-191US005; Endpoint RT) | Therapeutic Index (HIV-191US005; Endpoint p24)
1 | O=C(O)C1=C(C(=O)Nc2cc(Cl)c(OCc3c(F)cccc3Cl)c(Cl)c2)CCC1 [Compound 22, 2-[3,5-Dichloro-4-(2-chloro-6-fluoro-benzyloxy)-phenylcarbamoyl]-cyclopent-1-enecarboxylic acid] | >17 | – | –
2 | COc1cccc(-c2c(F)c(F)c(NC(=O)c3occc3C(=O)O)c(F)c2F)c1 [Compound 8, 2-(2,3,5,6-tetrafluoro-3′-methoxybiphenyl-4-ylcarbamoyl)furan-3-carboxylic acid] | – | >131 | >119
3 | O=C(Nc1c(F)c(F)c(-c2cccc(OC(F)(F)F)c2)c(F)c1F)c1ccsc1C(=O)O [Compound 1, 3-(2,3,5,6-Tetrafluoro-3′-trifluoromethoxy-biphenyl-4-ylcarbamoyl)-thiophene-2-carboxylic acid] | >1250 | >842 | >598
4 | O=C(Nc1ccc(-c2ccccc2)cc1)Nc1ccccc1C(=O)O [Compound 7, 2-(3-biphenyl-4-ylureido)benzoic acid] | – | >2046 | >1804
5 | O=C(O)C1=C(C(=O)Nc2c(F)cc(-c3ccccc3Cl)cc2F)CSC1 [Compound 2, 4-(2′-Chloro-3,5-difluoro-biphenyl-4-ylcarbamoyl)-2,5-dihydro-thiophene-3-carboxylic acid] | >147 | >109 | >72
6 | CN(C)c1ccc(-c2ccc(NC(=O)C3=C(C(=O)O)CCC3)cc2Cl)cc1 [Compound 23, 2-(2-Chloro-4′-dimethylamino-biphenyl-4-ylcarbamoyl)-cyclopent-1-enecarboxylic acid] | – | >93 | >99
7 | COc1ccc(-c2ccc(NC(=O)C3=C(C(=O)O)CCC3)cc2Cl)cc1 [Compound 14, 2-(2-chloro-4′-methoxybiphenyl-4-ylcarbamoyl)cyclopent-1-enecarboxylic acid] | – | >19 | >19
8 | O=C(O)C1=C(C(=O)Nc2ccc(OCc3c(F)cccc3Cl)c(F)c2)CCC1 [Compound 21, 2-[4-(2-Chloro-6-fluoro-benzyloxy)-3-fluoro-phenylcarbamoyl]-cyclopent-1-enecarboxylic acid] | >17 | – | –
9 | COc1cccc(-c2ccc(NC(=O)c3ccsc3C(=O)O)c(F)c2)c1 [Compound 24, 3-(3-Fluoro-3′-methoxy-biphenyl-4-ylcarbamoyl)-thiophene-2-carboxylic acid] | – | 14 | 12
